A mixed list of measured activities; the numbers were collected in NIAID ChemDB.

Common to all: host cell toxicity; cell line: ATH8; measure: CC50

CCn is the concentration with n% toxicity to the cells. An empty or dashed field is not shown. Rows are shuffled and stem from different studies.

compound | read by | value
Nc1ncnc2c1ncn2[C@H]1C=C[C@@H](CO)O1 |  | 52 µM
Nc1ncnc2c1ncn2[C@H]1C=C[C@@H](CO)O1 |  | 75 µM
Nc1ccn(C=C=CCO)c(=O)n1 |  | >5 µM
Nc1ccn([C@H]2C=C[C@@H](CO)O2)c(=O)n1 | trypan blue | 30 µM
Nc1nc2c(ncn2C/C=C/CO)c(=O)[nH]1 |  | >200 µM
Nc1ncnc2c1ncn2[C@H]1CC[C@@H](CO)O1 |  | >500 µM
Cc1cn(CC(=O)CCO)c(=O)[nH]c1=O |  | >100 µM
Cc1cn([C@H]2C[C@H](SCCO)[C@@H](CO)O2)c(=O)[nH]c1=O |  | >100 µM
Nc1ncnc2c1ncn2[C@H]1CC[C@@H](CO)O1 |  | >500 µM
Cc1cn([C@H]2C[C@H](SC#N)[C@@H](CO)O2)c(=O)[nH]c1=O |  | >100 µM
Cc1cn([C@H]2C=C[C@@H](CO)O2)c(=O)[nH]c1=O |  | 100 µM
Nc1ccn([C@H]2CC[C@@H](CO)O2)c(=O)n1 |  | >5 µM
Nc1ccn([C@H]2C=C[C@@H](CO)O2)c(=O)n1 |  | 35 µM
Cc1cn([C@H]2C[C@H](N=[N+]=[N-])[C@@H](CO)O2)c(=O)nc1N |  | >100 µM
Nc1ncnc2c1ncn2CC#CCCl |  | <100 µM

The last 2 rows once more:

| compound | read by | value |
|---|---|---|
| Cc1cn([C@H]2C[C@H](N=[N+]=[N-])[C@@H](CO)O2)c(=O)nc1N |  | >100 µM |
| Nc1ncnc2c1ncn2CC#CCCl |  | <100 µM |